A mixed list of measured activities; the numbers were collected in NIAID ChemDB.

Shared fields: tests in culture; species: Mycobacterium avium complex; endpoint: MIC

Rows are shuffled and stem from different studies.

SMILES | strain or isolate | method | value
CN(C)CC1CCN(c2c(F)cc3c(=O)c(C(=O)O)cn(C4CC4)c3c2F)C1 | 1915112 | - | 1 µg/mL
CC[C@H]1OC(=O)[C@H](C)[C@@H](O[C@H]2C[C@@](C)(OC)[C@@H](O)[C@H](C)O2)[C@H](C)[C@@H](O[C@@H]2O[C@H](C)C[C@H](N(C)C)[C@H]2O)[C@](C)(OC)C[C@@H](C)C(=O)[C@H](C)[C@@H](O)[C@]1(C)O | 3211 | - | 4 µg/mL
NC1CCCCN(c2c(F)cc3c(=O)c(C(=O)O)cn(C4CC4)c3c2F)C1=O | 1172733 | - | 32 µg/mL
CCn1cc(C(=O)O)c(=O)c2cc(F)c(N3CCNCC3)cc21 | CIPT 14031001 | - | 10 µg/mL
C[C@@H]1CN(c2c(F)c(N)c3c(=O)c(C(=O)O)cn(C4CC4)c3c2F)C[C@H](C)N1 | 29 | broth dilution | 1 µg/mL
CC[C@H]1OC(=O)[C@H](C)[C@@H](O[C@H]2C[C@@](C)(OC)[C@@H](O)[C@H](C)O2)[C@H](C)[C@@H](O[C@@H]2O[C@H](C)C[C@H](N(C)C)[C@H]2O)[C@](C)(O)C[C@@H](C)C(=O)[C@H](C)[C@@H](O)[C@]1(C)O | 3218 | - | 32 µg/mL
CN[C@@H]1[C@@H](O)[C@@H](O[C@@H]2[C@@H](O)[C@H](O[C@H]3O[C@H](CN)CC[C@H]3N)[C@@H](N)C[C@H]2N)OC[C@]1(C)O | TMC 1469 | - | 1.56 µg/mL
CCNCC1CN(c2c(F)cc3c(=O)c(C(=O)O)cn(C4CC4)c3c2F)CC1CNCC | 1760694 | - | 32 µg/mL
CC(C)N=c1cc2n(-c3ccc(Cl)cc3)c3ccccc3nc-2cc1Nc1ccc(Cl)cc1 | CH-2/HIV+ | - | 0.5 µg/mL
NC[C@H]1O[C@H](O[C@H]2[C@H](O)[C@@H](O[C@H]3O[C@H](CO)[C@@H](O)[C@H](N)[C@H]3O)[C@H](N)C[C@@H]2N)[C@H](O)[C@@H](O)[C@@H]1O | Isolate C-35 | - | 400 µg/mL
CN1CC2CCC1CN2c1c(F)cc2c(=O)c(C(=O)O)cn(C3CC3)c2c1F | PI12/39 | - | 2 µg/mL
CCn1cc(C(=O)O)c(=O)c2cc(F)c(N3CCNCC3)nc21 | CIPT 14031003 | - | 40 µg/mL
CO[C@H]1/C=C/O[C@@]2(C)Oc3c(C)c(O)c4c(O)c(c(/C=N/N5CCN(C/C=C/c6ccccc6)CC5)c(O)c4c3C2=O)NC(=O)/C(C)=C\C=C\[C@H](C)[C@H](O)[C@@H](C)[C@@H](O)[C@@H](C)[C@H](OC(C)=O)[C@@H]1C | LR562 | - | ≤0.015 µg/mL
CN[C@@H]1[C@H](O[C@H]2[C@H](O[C@H]3[C@H](O)[C@@H](O)[C@H](N=C(N)N)[C@@H](O)[C@@H]3N=C(N)N)O[C@@H](C)[C@]2(O)C=O)O[C@@H](CO)[C@H](O)[C@H]1O | Isolate 49 | - | 12.5 µg/mL
NC[C@@H]1O[C@H](O[C@H]2[C@@H](O)[C@H](O[C@@H]3[C@@H](O)[C@H](N)C[C@H](N)[C@H]3O[C@H]3O[C@H](CO)[C@@H](O)[C@H](O)[C@H]3N)O[C@@H]2CO)[C@H](N)[C@@H](O)[C@@H]1O | CH-3/HIV+ | - | 3.12 µg/mL
CN1CCN(c2cc3c(cc2F)c(=O)c(C(=O)O)cn3-c2ccc(F)cc2)CC1 | 3211 | - | 16 µg/mL
CO[C@H]1/C=C/O[C@@]2(C)Oc3c(C)c(O)c4c(O)c(c5c(c4c3C2=O)NC2(CCN(CC(C)C)CC2)N=5)=NC(=O)/C(C)=C\C=C\[C@H](C)[C@H](O)[C@@H](C)[C@@H](O)[C@@H](C)[C@H](OC(C)=O)[C@@H]1C | 3342-4 | - | 2 µg/mL
CN[C@@H]1[C@H](O[C@H]2[C@H](O[C@H]3[C@H](O)[C@@H](O)[C@H](N=C(N)N)[C@@H](O)[C@@H]3N=C(N)N)O[C@@H](C)[C@]2(O)C=O)O[C@@H](CO)[C@H](O)[C@H]1O | 13016 (serotype 4) | - | 1.6 µg/mL
NCC[C@H](O)C(=O)N[C@@H]1C[C@H](N)[C@@H](O[C@H]2O[C@H](CN)[C@@H](O)[C@H](O)[C@H]2O)[C@H](O)[C@H]1O[C@H]1O[C@H](CO)[C@@H](O)[C@H](N)[C@H]1O | Isolate 93 | - | 6.25 µg/mL
O=C(O)c1cn(C2CC2)c2c(F)c(N3CC4C(CO)C4C3)c(F)cc2c1=O | PI12/39 | - | 8 µg/mL
NNC(=O)c1ccncc1 | 13034 (serotype 18) | - | 3.2 µg/mL
NCCC(O)C(N)CC(=O)NC1CNC(=O)C(C2CCN=C(N)N2)NC(=O)/C(=C/NC(N)=O)NC(=O)C(CO)NC(=O)C(CO)NC1=O | Isolate 93 | - | 25 µg/mL
O=C(O)c1cn(C2CC2)c2c(F)c(N3CCC(n4ccnc4)C3)c(F)cc2c1=O | PI12/39 | - | 8 µg/mL

A second listing of 2 rows from above:

| SMILES | strain or isolate | method | value |
|---|---|---|---|
| NCCC(O)C(N)CC(=O)NC1CNC(=O)C(C2CCN=C(N)N2)NC(=O)/C(=C/NC(N)=O)NC(=O)C(CO)NC(=O)C(CO)NC1=O | Isolate 93 | - | 25 µg/mL |
| CCn1cc(C(=O)O)c(=O)c2cc(F)c(N3CCNCC3)nc21 | CIPT 14031003 | - | 40 µg/mL |

An empty or dashed field is not shown.